Anti-infective test results gathered from many reports (values: NIAID ChemDB through PubChem).

Shared fields: growth or infection tests; species: HIV-1

Blank or dashed fields: not listed here. Fold resistance: result on the changed form divided by that on wild type. ECn: concentration that inhibits the pathogen or its effect by n%. Rows are shuffled and stem from different studies.

SMILES	strain	read-out	cell line	read by	changes	value
CC(C)C1=C2[C@H]3CC[C@@H]4[C@@]5(C)CC[C@H](OC(=O)[C@H]6C[C@@H](C(=O)O)C6(C)C)C(C)(C)[C@@H]5CC[C@@]4(C)[C@]3(C)CC[C@@]2(CC(=O)NC(F)CNC(=O)c2ccc(Cl)cc2)CC1=O	92HT599	EC50	MT-2	p24 / ELISA	-	<1 µM
O=C(c1ccccc1)N(CCc1ccccc1)C[C@H](O)CN(CC1CCCC1)S(=O)(=O)CC1CCS(=O)(=O)CC1	IIIB	EC90	CEM	p24	-	1 µM
CC(C)C1=C2[C@H]3CC[C@@H]4[C@@]5(C)CC[C@H](OC(=O)[C@H]6C[C@@H](C(=O)O)C6(C)C)C(C)(C)[C@@H]5CC[C@@]4(C)[C@]3(C)CC[C@@]2([C@@H](O)CNC(=O)C(C)(C)NC(=O)c2ccc(N)nc2)CC1=O	92HT599	EC50	MT-2	p24 / ELISA	-	<1 µM
COc1ccc(S(=O)(=O)N(CC2CCCC2)C[C@@H](O)CN(CCCc2ccccc2)C(=O)O[C@H]2CCOC2)cc1	IIIB	EC90	CEM	p24	-	0.1 µM
Cc1cc(C#N)cc(C(=O)c2cc(Cl)ccc2OCC(=O)Nc2ccc(S(N)(=O)=O)cc2C)c1	HXB2	fold resistance	HeLa + HELA CD4+	β-galactosidase	RT-V106I	~1
O=C(O)c1cc(-n2cccc2)ccc1Cl	93TH051 X4R5 CLADE E	EC90	PBMC/5.25M7	luciferase / cell fusion	-	128 µM
CC(C)C1=C2[C@H]3CC[C@@H]4[C@@]5(C)CC[C@H](OC(=O)[C@H]6C[C@@H](C(=O)O)C6(C)C)C(C)(C)[C@@H]5CC[C@@]4(C)[C@]3(C)CC[C@@]2([C@@H](O)CNCC(F)(F)NC(=O)c2ccc(Cl)cc2)CC1=O	92HT599	EC50	MT-2	p24 / ELISA	-	<1 µM
O=C1Nc2ccc(F)c(F)c2[C@@](C#CC2CC2)(C(F)(F)F)N1	-	fold resistance	-	-	RT-V108I	<13.3
Cc1cc(C)cc(C(=O)c2cc(Cl)ccc2OCC(=O)Nc2ccc(S(N)(=O)=O)cc2C)c1	Nevirapine-resistant (RT Y181C)	fold resistance	MT-4	cytopathic effect / propidium iodide	RT-Y181C	~1
Cc1cncc(CN(CCN(C)C)CC[C@@]23CC[C@]4(C)[C@H](CC[C@@H]5[C@@]6(C)CC[C@H](OC(=O)[C@H]7C[C@@H](C(=O)O)C7(C)C)C(C)(C)[C@@H]6CC[C@]54C)C2=C(C(C)C)C(=O)C3)n1	92HT599	EC50	MT-2	p24 / ELISA	-	<1 µM
O=C1Nc2ccc(F)c(F)c2[C@@](/C=C/C2CC2)(C(F)(F)F)N1	-	EC90	-	-	RT-K103N Y181C	~0.11 µM
Cc1cc(S(N)(=O)=O)ccc1NC(=O)COc1ccc(Cl)cc1C(=O)c1cc(F)cc(F)c1	HXB2	fold resistance	HeLa + HELA CD4+	β-galactosidase	RT-G190A	~1
CC(C)C1=C2[C@H]3CC[C@@H]4[C@@]5(C)CC[C@H](OC(=O)[C@H]6C[C@@H](C(=O)O)C6(C)C)C(C)(C)[C@@H]5CC[C@@]4(C)[C@]3(C)CC[C@@]2(CCNCC(C)(C)NC(=O)CN(C)C)CC1=O	92HT599	EC50	MT-2	p24 / ELISA	-	<1 µM
Cc1cc(S(N)(=O)=O)ccc1NC(=O)COc1ccc(Cl)cc1C(=O)c1cc(F)cc(C(F)(F)F)c1	HXB2	fold resistance	HeLa + HELA CD4+	β-galactosidase	RT-K103N P225H	~1
CC(C)(C)S(=O)(=O)N(CC1CCCC1)C[C@@H](O)CN(CCc1ccccc1)C(=O)c1ccccc1	IIIB	EC90	CEM	p24	-	1 µM
Cc1cc(C#N)cc(C(=O)c2cc(Cl)ccc2OCC(=O)Nc2ccc(S(N)(=O)=O)nc2C)c1	HXB2	fold resistance	HeLa + HELA CD4+	β-galactosidase	RT-L100I	~1
Cc1nc2ccc(CNCC[C@@]34CC[C@]5(C)[C@H](CC[C@@H]6[C@@]7(C)CC[C@H](OC(=O)[C@H]8C[C@@H](C(=O)O)C8(C)C)C(C)(C)[C@@H]7CC[C@]65C)C3=C(C(C)C)C(=O)C4)cc2[nH]1	92HT599	EC50	MT-2	p24 / ELISA	-	<1 µM
Cc1cc2[nH]cnc2cc1NC(=O)COc1ccc(Cl)cc1C(=O)c1cc(F)cc(C(F)(F)F)c1	HXB2	fold resistance	HeLa + HELA CD4+	β-galactosidase	RT-V108I	~1
CC(C)C1=C2[C@H]3CC[C@@H]4[C@@]5(C)CC[C@H](OC(=O)[C@H]6C[C@@H](C(=O)O)C6(C)C)C(C)(C)[C@@H]5CC[C@@]4(C)[C@]3(C)CC[C@@]2([C@@H](O)CNC(=O)[C@@H](CO)NC(=O)c2ccc(Cl)cc2)CC1=O	92HT599	EC50	MT-2	p24 / ELISA	-	<1 µM
CC(C)CN(C(=O)C(=O)C(=O)c1ccccc1C(=O)NC(C)(C)C)S(=O)(=O)c1ccccc1	IIIB	EC90	CEM	p24	-	1 µM
Cc1cc2cn[nH]c2cc1NC(=O)COc1ccc(Cl)cc1C(=O)c1cccc(C#N)c1	HXB2 (RT-K103N Y181C) Recombinant	fold resistance	HeLa + HELA CD4+	β-galactosidase	RT-K103N Y181C	~1

For reference, 3 entries again:

SMILES	strain	read-out	cell line	read by	changes	value
Cc1cc(C#N)cc(C(=O)c2cc(Cl)ccc2OCC(=O)Nc2ccc(S(N)(=O)=O)nc2C)c1	HXB2	fold resistance	HeLa + HELA CD4+	β-galactosidase	RT-L100I	~1
Cc1cc(C)cc(C(=O)c2cc(Cl)ccc2OCC(=O)Nc2ccc(S(N)(=O)=O)cc2C)c1	Nevirapine-resistant (RT Y181C)	fold resistance	MT-4	cytopathic effect / propidium iodide	RT-Y181C	~1
Cc1cc2cn[nH]c2cc1NC(=O)COc1ccc(Cl)cc1C(=O)c1cccc(C#N)c1	HXB2 (RT-K103N Y181C) Recombinant	fold resistance	HeLa + HELA CD4+	β-galactosidase	RT-K103N Y181C	~1